Key:
[1] = Oxidation of individual organic contaminants by Fe^VI with or without S2O3^2− in buffered ultrapure water, HPLC; type: physicochemical; settings: for removal by Fe^VI—S2O3^2− (FIG. 3): individual contaminant 1.0 μM; for oxidation by Fe^VI—S2O3^2− with versus without oxygen (FIG. 7): air or nitrogen, contaminant 1.0 μM
Method: To test liquid ferrate solutions using second approach, batch experiments were conducted in a series of 100 mL glass jars under constant stirring rate (400 rpm) with a magnetic stirrer. Oxidation of each micropollutant or their mixtures by Fe^VI with or without S2O3^2− was initiated by mixing equal solution volumes of 10 mL, and the final reaction solutions were kept at 8.00±0.04.
The stock solutions of these contaminants (10.0 μM) were prepared in 10.0 mM Na2HPO4, and diluted using the same buffer solution before the removal experiments. […] Solutions of Fe^VI were prepared by adding K2FeO4 powders to 5.0 mM Na2HPO4/1.0 mM Na2B4O7.10H2O buffer solution. The concentrations of Fe^VI were quantitatively measured using an UV-visible spectrometer at a wavelength of 510 nm with a molar absorption coefficient of ε510 nm=1150 M^−1 cm^−1: The pH value of the contaminant solutions was adjusted to 7.50 via the addition of diluted H3PO4 before mixing with Fe^VI solution to achieve the desired reaction pH at 8.00±0.04. Methanol and phosphoric acid (85%) of high performance liquid chromatography (HPLC) grade were used in testing. 5,5-dimethyl-1-pyrroline-N-oxide (DMPO) was used as the spin trap reagent for identifying the possible reactive inorganic radicals (e.g., .OH and/or SO4.^−) in the oxidation system. All the other chemicals (e.g., hydroxylamine and permanganate) were provided from commercial sources and used without further purification. Two kinds of natural water samples were individually obtained from Brazos River (N 30°42′33″, E 96°28′5″, College Station, Texas) and Lake Bryan (N 30°33′30″, E 96°25′25″, Bryan, Texas). […] These real water samples were filtered through 0.45 μm hydrophilic PVDF membrane to remove the insoluble particles before spiking the contaminant mixtures (1.0 μM for each compound). 20.0 mM borate buffer was used to stabilize the solution pH of the real waters at 8.00±0.04. All the other solutions were prepared using the ultrapure water (resistivity >18 MΩ cm^−1).
Experiments were conducted in a series of 100 mL glass jars under constant stirring rate (400 rpm) with a magnetic stirrer. Oxidation of each contaminant or their mixtures by Fe^VI with or without S2O3^2− was initiated by mixing equal solution volumes of 10 mL, and the final reaction solutions were kept at 8.00±0.04. The concentration of Fe^VI was maintained at 100.0 μM, and the ratios of [S2O3^2−]:[Fe^VI] in the system were varied from 0 to 5.0 for aqueous removal of TMP (5.0 μM). […] After 30 seconds of oxidation, 20.0 μL NH2OH solution (1 M) was added to quench the reactions. Samples were transferred into high performance liquid chromatography (HPLC) vials, and were subsequently analyzed using the HPLC method. Similar experiments using TMP as a target contaminant were also performed by replacing Fe^VI with Mn^VII or chlorine under the same conditions.

[2] = not given; remark: listed apart in the source
[3] = Fe^VI 100.0 μM, S2O3^2− 12.5 μM, pH 8.00, 30 s
[4] = air saturated, same concentrations as Fe^VI experiments, 30 seconds

With `NC(=O)N1c2ccccc2C=Cc2ccccc21` [CMZ, Carbamazepine] the “removal by Fe^VI—S2O3^2− (FIG. 3)” value [1, 3] was “Almost complete removal”.

For `COc1cc(Cc2cnc(N)nc2N)cc(OC)c1OC` [TMP, Trimethoprim], the “effect of S2O3^2− addition on oxidation of TMP by chlorine” value [4] was “no enhancement”, the “oxidation of TMP by chlorine-S2O3^2−” value (molar ratio 5.0, 30 seconds) was “No oxidation” and the “oxidation of TMP by Fe^VI—S2O3^2− in the presence of DMSO (FIG. 9)” value ([1]; 1 mM DMSO, TMP 5.0 μM, Fe^VI 100.0 μM, S2O3^2− 12.5 μM, pH 8.00, 30 s) was “almost inhibited”. The “oxidation of TMP by Fe^VI—S2O3^2− without oxygen versus with oxygen” value ([1]; N2 purging, TMP 5.0 μM, ratios 0-5.0, pH 8.0, 30 seconds) was “did not show any significant difference”, the “removal by Fe^VI—S2O3^2− (FIG. 3)” value [1, 3] was “Almost complete removal” and the “oxidation of TMP by S2O3^2− only” value ([1]; only S2O3^2− (12.5 μM) added, no Fe^VI) was “no oxidation”. The “effect of S2O3^2− addition on oxidation of TMP by Mn^VII” value [2, 4] was “no enhancement” and the “oxidation of TMP by Mn^VII—S2O3^2−” value ([2]; molar ratio 5.0, 30 seconds) was “No oxidation”.

In the case of `COc1cc(NS(=O)(=O)c2ccc(N)cc2)nc(OC)n1` [SMX, Sulfadimethoxine], the “removal by Fe^VI—S2O3^2− (FIG. 3)” value [1, 3] was “Almost complete removal”.

In the case of `O=C(O)Cc1ccccc1Nc1c(Cl)cccc1Cl` [DCF, Diclofenac], the “oxidation by Fe^VI—S2O3^2− with versus without oxygen (FIG. 7)” value [1, 3] was “no obvious difference” and the “removal by Fe^VI—S2O3^2− (FIG. 3)” value [1, 3] was “Almost complete removal”.

For `CCN1CCN(c2cc3c(cc2F)c(=O)c(C(=O)O)cn3C2CC2)CC1` [ENR, Enrofloxacin], the “oxidation by Fe^VI—S2O3^2− with versus without oxygen (FIG. 7)” value [1, 3] was “no obvious difference” and the “removal by Fe^VI—S2O3^2− (FIG. 3)” value [1, 3] was “Almost complete removal”.

With `CC(C)NCC(O)COc1ccc(CC(N)=O)cc1` (stereo not shown) [ATL, Atenolol] the “oxidation by Fe^VI—S2O3^2− with versus without oxygen (FIG. 7)” value [1, 3] was “no obvious difference”.

In the case of Aspartame [APT], the “oxidation by Fe^VI—S2O3^2− with versus without oxygen (FIG. 7)” value [1, 3] was “no obvious difference”.
